PubChem BioAssay AID504761 | Drosophila RNAi Screening Center – 2011

- Assay: 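Fly genes whose silencing reduces dengue virus type 2 infection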 (primary screen)
- Cells: D.Mel-2 cells from Drosophila
- Reagents: long dsRNA against Drosophila genes
- Conditions: infection with dengue virus type 2; dose and infection time not stated
- Measured: 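Cells stained for dengue envelope protein and imaged; percent of infected cells per well on duplicate plates, ranked by infection, with stained nuclei counted for cell number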
- Direction: infection score: higher = more virus-infected cells; cell count: higher = more cells in the well
- Rule for the call: 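Very low infection ranking in both replicate wells (chance probability at most 0.065), then a retest showing infection dropped 1.5-fold or more at p below 0.05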
- Meaning of the calls: active = confirmed: knock-down lowers infection; inactive = not picked or not confirmed
In all, the deposit lists about 22,000 reagents; this is an unselected part of those that have a named target and a result. Over the whole deposit, 116 (0.52%) are marked active. 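Calls depend on retest data that are not deposited; infection was ranked per plate without normalising between plates; the unit of the infection score is not given.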 Raw values are not corrected between plates. A plus sign joins genes that one reagent is predicted to hit. Reagent sequences are not shown. Not stated in the record: the amount of reagent, the time to read-out.

| target | amplicon | infection score, replicate 1 | infection score, replicate 2 | cell count, replicate 1 | cell count, replicate 2 | Outcome |
| --- | --- | --- | --- | --- | --- | --- |
| CG2021 | DRSC08546 | 5.43 | 0.74 | 5465 | 5679 | inactive |
| CG2021 | DRSC27282 | 7.25 | 8.35 | 6733 | 5404 | inactive |
| glec | DRSC16958 | 0.42 | 3.69 | 6855 | 6856 | inactive |
| glec | DRSC25314 | 1.71 | 1.2 | 6538 | 6415 | inactive |
| CG43736 + CG33692 (retired record) | DRSC18370 | 7.54 | 9.86 | 5739 | 6063 | inactive |
| CG43736 + CG33692 (retired record) | DRSC18371 | 15.4 | 17.6 | 6128 | 5715 | inactive |
| CG43736 + CG33692 (retired record) | DRSC27351 | 41.2 | 14.8 | 4943 | 6632 | inactive |
| CG3198 | DRSC18292 | 4.02 | 4.01 | 6286 | 6661 | inactive |
| CG3198 | DRSC24615 | 3.28 | 3.42 | 6129 | 5610 | inactive |
| Grx1 | DRSC10727 | 3.84 | 1.54 | 6639 | 6771 | inactive |
| CG3769 | DRSC02723 | – | 8.4 | 537 | 3560 | inactive |
| Cpr78Ca | DRSC11651 | 7.35 | 9.25 | 6735 | 6530 | inactive |
| CG9672 | DRSC20201 | 5.15 | 6.06 | 6872 | 6738 | inactive |
| bcn92 | DRSC18741 | 4.04 | 1.25 | 1335 | 6094 | inactive |
| bcn92 | DRSC28946 | – | 3.1 | 431 | 871 | inactive |
| CG2006 | DRSC15412 | 3.2 | 4.37 | 6306 | 6363 | inactive |
| PpN58A | DRSC04642 | 12 | 22.9 | 5971 | 1789 | inactive |
| PpN58A | DRSC28243 | 11.4 | – | 4142 | 389 | inactive |
| vnd | DRSC18849 | 3.94 | 3.96 | 6403 | 6334 | inactive |
| vnd | DRSC22487 | 1.64 | 5.16 | 5682 | 1318 | inactive |
| vnd | DRSC25390 | 0.95 | 3.96 | 6199 | 6362 | inactive |
| CG10474 | DRSC05993 | 1.44 | 0.52 | 6411 | 6563 | inactive |
| CG12078 | DRSC08242 | 3.81 | 3.62 | 6119 | 5989 | inactive |
| AOX1 | DRSC15339 | 13.5 | 12.2 | 6257 | 6475 | inactive |
| AOX1 | DRSC29234 | 16.8 | 22.3 | 3272 | 4533 | inactive |
| Ip6k | DRSC04054 | 15.1 | 41.5 | 6663 | 5198 | inactive |
| Ip6k | DRSC24285 | 6.67 | 8.38 | 6750 | 6398 | inactive |
| CG3961 | DRSC10390 | 14 | 15.9 | 6176 | 5553 | inactive |
| CG3961 | DRSC10391 | 8.69 | 2.79 | 6824 | 6745 | inactive |
| mus101 | DRSC19388 | 21.6 | 22.8 | 4847 | 5747 | inactive |
| RPA2 | DRSC03184 | 21.3 | 38.6 | 5146 | 4478 | inactive |
| RPA2 | DRSC29750 | 22.7 | 4.31 | 4168 | 5293 | inactive |
| Unc50 | DRSC16561 | 8.95 | 13.7 | 6011 | 5426 | inactive |
| Unc50 | DRSC28560 | 5.44 | 19.8 | 1397 | 5200 | inactive |
| TRAM | DRSC18178 | 4.36 | 10.5 | 2319 | 5107 | inactive |
| TRAM | DRSC18651 | – | 15.9 | 366 | 3733 | inactive |
| TotB | DRSC15842 | 3.8 | 18.4 | 6895 | 5514 | inactive |
| sunz | DRSC12559 | 25.4 | 4.83 | 5636 | 1533 | inactive |
| Gbeta76C | DRSC11174 | 6.02 | 20.2 | 6888 | 5848 | inactive |
| CG6073 | DRSC15962 | 4.64 | 1.42 | 1573 | 5968 | inactive |
| CG6073 | DRSC22742 | 10.8 | 13.2 | 4897 | 6588 | inactive |
| CG6073 | DRSC29018 | 16.1 | 13.5 | 4784 | 5929 | inactive |
| Npc2d | DRSC14551 | 3.43 | 4.48 | 6059 | 6425 | inactive |
| Npc2d | DRSC28011 | 28.7 | 28.4 | 5069 | 6006 | inactive |
| dpr7 | DRSC17109 | 3.5 | 0.92 | 6575 | 6720 | inactive |
| dpr7 | DRSC26544 | 4.92 | 6.09 | 6345 | 6596 | inactive |
| Taz | DRSC07704 | 1.11 | 1.67 | 6694 | 7008 | active |
| Taz | DRSC22625 | 23.5 | 20.1 | 4692 | 3000 | inactive |
| Taz | DRSC27100 | 11.5 | 6.4 | 6806 | 7092 | inactive |
| CG32219 | DRSC09641 | 3.77 | 0.86 | 6226 | 5960 | inactive |
| CG42449 | DRSC18084 | 9.38 | 20.6 | 6406 | 6437 | inactive |
| CG42449 | DRSC25316 | 25.2 | 26.9 | 5727 | 6122 | inactive |
| Mgat1 | DRSC07463 | 1.37 | 1.94 | 6425 | 5782 | inactive |
| CG34435 | DRSC18086 | 2.36 | 1.69 | 6609 | 6859 | inactive |
| moon | DRSC19497 | 1.9 | 3.7 | 6526 | 6833 | inactive |
| CG5916 | DRSC15917 | 19.3 | 14.8 | 6511 | 6426 | inactive |
| CG15029 (retired record) | DRSC19610 | 3.52 | 4.92 | 6481 | 6909 | inactive |
| CG15029 (retired record) | DRSC27659 | 27.9 | 15.4 | 5335 | 6110 | inactive |
| Cyp6d4 | DRSC16633 | 4.07 | 1.97 | 6837 | 6433 | inactive |
| Cyp6d4 | DRSC24371 | 5.96 | 1.9 | 6322 | 5693 | inactive |
| sdt | DRSC17555 | 1.38 | 0.14 | 6092 | 6551 | inactive |
| sdt | DRSC17556 | 1.56 | 0.27 | 2758 | 6266 | inactive |
| sdt | DRSC17860 | 1.56 | 9.09 | 450 | 1563 | inactive |
| sdt | DRSC17861 | 4.22 | 5.59 | 6367 | 6746 | inactive |
| sdt | DRSC18022 | 8.16 | 10.4 | 6786 | 6354 | inactive |
| sdt | DRSC18108 | 5.87 | 7.44 | 6695 | 6840 | inactive |
| sdt | DRSC26851 | 2.46 | 2.56 | 6351 | 6641 | inactive |
| Spn88Ea | DRSC17061 | 2.74 | 11.4 | 5647 | 5674 | inactive |
| Spn88Ea | DRSC27907 | 12.6 | 8.07 | 5957 | 6496 | inactive |
| l(2)gd1 | DRSC02773 | 10.7 | 3.05 | 6060 | 5900 | inactive |
| l(2)gd1 | DRSC29178 | 30.4 | 18.1 | 5288 | 3853 | inactive |
| RpS10b | DRSC19561 | 19 | 11.7 | 5028 | 5253 | inactive |
| CG7080 | DRSC16193 | 6.69 | 1.97 | 6485 | 6554 | inactive |
| CG7080 | DRSC27850 | – | 21.2 | 409 | 5254 | inactive |

Records above whose target name starts with G or g (4):
| target | amplicon | infection score, replicate 1 | infection score, replicate 2 | cell count, replicate 1 | cell count, replicate 2 | Outcome |
| --- | --- | --- | --- | --- | --- | --- |
| glec | DRSC16958 | 0.42 | 3.69 | 6855 | 6856 | inactive |
| glec | DRSC25314 | 1.71 | 1.2 | 6538 | 6415 | inactive |
| Grx1 | DRSC10727 | 3.84 | 1.54 | 6639 | 6771 | inactive |
| Gbeta76C | DRSC11174 | 6.02 | 20.2 | 6888 | 5848 | inactive |
